How the values were obtained:
[1] = test system: cell-surface MHC-I; test: Nef-induced MHC-I downregulation in CEM-GFP cells (flow cytometry); conditions: CEM-GFP cells infected with HIV-1 WT NL43, 8 days
[2] = test system: HIV-1 NL4-3
[3] = test system: SIV ΔB670; test: SIV infectivity in TZM-b1 reporter cells (luciferase); conditions: read-out: IC50 SIV infectivity, luciferase 48 hours
[4] = test system: wild-type HIV-1 NL4-3; test: HIV-1 replication in U87MG cells (p24 ELISA); assay type: cell-based
[5] = test system: wild-type HIV-1 NL4-3; test: HIV-1 replication in CEM-T4 cells (p24 ELISA); conditions: read-out: IC50 wild-type HIV-1 replication, p24 ELISA 9 days
[6] = test system: SIV quasispecies ΔB670; test: SIV replication in CEM-174 cells (p27 Gag ELISA); conditions: read-out: IC50 SIV replication, 5 days
[7] = test system: HIV-1 NL4-3 Nef chimeras (subtypes A1, A2, B, C, F1, F2, G, H, J, K, SF2); test: HIV-1 Nef chimera replication in CEM-T4 cells (p24 ELISA); conditions: read-out: IC50 replication of HIV-1 Nef chimeras, all eleven chimeras, p24 ELISA 10 days
[8] = test system: Nef-defective (ΔNef) HIV-1 NL4-3; test: Nef-defective HIV-1 replication in CEM-T4 cells (p24 ELISA)
[9] = test system: HIV-1 Nef Asn126 mutants (N126L, N126Q, N126A); test: Surface plasmon resonance binding to Nef Asn126 mutants; conditions: compound held constant at 10 μM
[10] = test system: endogenous Src-family kinase (SFK) activation; test: Nef-mediated endogenous SFK activation in HIV-infected CEM-T4 cells (pY418 immunoblot); conditions: 1.0 μM
[11] = test system: cell-surface CD4; test: Nef-induced CD4 downregulation in CEM-GFP cells (flow cytometry); conditions: CEM-GFP cells infected with HIV-1 WT NL43, 8 days
[12] = target: Nef:Hck complex (UniProt P03407+P08631, Q523E/Q524E/Q525I); conditions: for inhibition: 20 µM

By UniProt entry, the sequences of proteins in these tests, tags left out. Chains listed by the source or under a name are the forms on record and can include a tag or linker. Residues count along the entry.
UniProt P03407, whole entry: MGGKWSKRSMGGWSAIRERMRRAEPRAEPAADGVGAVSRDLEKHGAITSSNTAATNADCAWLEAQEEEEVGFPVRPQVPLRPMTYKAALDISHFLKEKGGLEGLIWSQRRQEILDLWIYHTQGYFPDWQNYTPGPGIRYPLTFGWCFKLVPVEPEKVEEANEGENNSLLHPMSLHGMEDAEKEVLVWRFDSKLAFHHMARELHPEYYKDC
UniProt P08631, 78-522 with tags or gaps limits assumed: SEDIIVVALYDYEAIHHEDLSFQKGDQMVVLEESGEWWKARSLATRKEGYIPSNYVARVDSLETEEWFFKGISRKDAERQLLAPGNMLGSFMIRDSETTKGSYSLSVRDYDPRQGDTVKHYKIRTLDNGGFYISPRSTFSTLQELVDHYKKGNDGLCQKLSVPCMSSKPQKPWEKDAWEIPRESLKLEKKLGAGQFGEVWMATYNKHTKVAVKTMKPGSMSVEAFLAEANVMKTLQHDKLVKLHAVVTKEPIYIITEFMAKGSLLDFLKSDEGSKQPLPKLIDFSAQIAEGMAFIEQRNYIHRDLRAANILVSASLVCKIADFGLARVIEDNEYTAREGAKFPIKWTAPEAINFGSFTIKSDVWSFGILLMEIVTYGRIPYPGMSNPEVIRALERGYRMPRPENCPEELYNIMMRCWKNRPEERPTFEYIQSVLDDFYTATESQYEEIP

With `NC(=S)n1nc(-c2ccc([N+](=O)[O-])cc2)c(N=Nc2cccc(Cl)c2)c1O` the “Reversal of Nef-mediated MHC-I downregulation” value [1] was “reverse Nef-mediated MHC-I downregulation to the same extent observed in cells infected with Nef-defective HIV-1”, the “INFECTIVITY @ 3 μM % Inhibition vs. DMSO control” value ([2]; 3 μM, TZM-b1 reporter cells) was 37.0% and the “Nef-mediated enhancement of HIV-1 infectivity” value ([2]; TZM-b1 cells, luciferase 48 hours, range of concentrations) was “inhibited Nef-mediated enhancement of HIV-1 infectivity in a concentration-dependent manner”. For the same molecule, the IC50 [3] was 3000 nM, the “REPLICATION @ 3 μM % Inhibition vs. DMSO control” value [4] was 47.4% and the IC50 [5] was 100 to 300 nM. For the same molecule, the IC50 [6] was 1000 nM, the IC50 [7] was 300 nM and the “Effect on replication of Nef-defective HIV” value ([8]; Nef chimera experiment, 0.3 and 1.0 μM) was “no effect”. For the same molecule, the “Replication of Nef-defective HIV-1” value ([8]; highest concentration tested 3.0 μM) was “unaffected”, the “Binding to Nef Asn126 mutants by SPR” value [9] was “none of these mutants demonstrated detectable binding” and the “Nef-dependent SFK activation (pY418)” value [10] was “completely inhibited”. The “Reversal of Nef-mediated CD4 downregulation” value [11] was “reverse Nef-mediated CD4 downregulation to the same extent observed in cells infected with Nef-defective HIV-1”.

Molecule `O=C(c1cnn(C(=O)c2cccc(S(=O)(=O)N3CCOCC3)c2)c1)c1ccccc1O` has an IC50 [12] of 2.71 µM and an inhibition [12] of 79.9%.

Molecule `Cc1nc2ccc3nc(NC(=O)c4ccc5c(c4)OCCO5)sc3c2s1` has an IC50 [12] of 4.79 µM and an inhibition [12] of 92.5%.

In the case of `COc1ccc(NC(=O)CN2C(=O)C(=C3SC(=S)N(C4CCS(=O)(=O)C4)C3=O)c3ccccc32)cc1` (stereo not drawn), the IC50 [12] is reported as 2.87 µM and the inhibition [12] is reported as 109%.

For `NC(=S)n1nc(-c2ccc([N+](=O)[O-])cc2)c(N=Nc2ccc(Cl)cc2)c1O`, the IC50 [12] was 5.36 µM and the inhibition [12] was 123%.

— patent US9695127B2, “Compounds for treating HIV and methods for using the compounds” (University of Pittsburgh—Of the Commonwealth System of …, priority 2012, dated 2017)
